Construct, isoform or probe ends are uncertain for at least one entry. No signal at the amounts used counts as a negative. Tags and fusion partners may be left off the protein sequences shown.
Target: T1, SsnA (NMV_0044) (Neisseria meningitidis 8013 2C4.3) (UniProt Q9K1N6)
T1 sequence (looked up, limits assumed): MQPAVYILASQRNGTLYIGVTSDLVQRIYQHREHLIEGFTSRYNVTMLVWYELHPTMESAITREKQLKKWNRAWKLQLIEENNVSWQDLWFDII
Experiment: EMSA
Conditions: [none (strand 2 printed 3'-5', reversed here)]; no recognition sequence; purified recombinant protein; protein details: N-terminal 6xHis; folded or branched …; letters built from the parent sequence and the stated change

## AGGAACCTCGAGGGATCCGTCCTAGCAAGCCGCTGCTACCGGAAGCTTCTCGAGGTTCCT / AGGAACCTCGAGTCTAGACTGCAGTTGAGAGCTTGCTAGGACGGATCCCTCGAGGTTCCT [Pseudo-Y]
  binding result: no binding
